Data as given in PubChem BioAssay AID1259414 (Drosophila RNAi Screening Center, 2018).
The deposit covers about 24,000 reagents; this is a random part of those that have a named target and a result. In the full data, about 1,210 (5%) were called active. 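Inactive calls also include excluded dsRNAs with several or no targets, genes unexpressed in JW18, and well A1, regardless of score.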 Entries without a mark were called inactive. The numbers tell different reagents against one gene apart. Names joined by + are all predicted targets of the reagent.

Screen: 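Host factors increasing or decreasing Wolbachia levels in cultured fly cells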 (primary screen)
System: Drosophila JW18 cells infected with Wolbachia
Knock-down reagent: long dsRNA against Drosophila genes, 0.25 µg dsRNA per well of a 384-well plate
Timing: 5 days
Treatment: cells persistently infected with Wolbachia before knock-down; no added drug
Measured: 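Automated imaging of bacterial rRNA staining divided by host cell count, reported as plate-normalised robust z-score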
Scale: Wolbachia per cell robust z: higher = more Wolbachia per host cell than the plate typical
Call rule: 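Hit when robust z is 1.5 or more, or -1.5 or less, in at least two of three replicates; excludes dsRNAs with several or no targets, genes not expressed in JW18 and well A1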

gene,reagent,"Wolbachia per cell robust z, rep 1","Wolbachia per cell robust z, rep 2","Wolbachia per cell robust z, rep 3"
CG42355,1,0.0872,-1.2,0.227
CREG (Cellular Repressor of E1A-stimulated Genes),1,-1.94,-1.04,-1.8
CG3038,1,0.363,1.24,-1.56
CG3038,2,0.104,0.126,0.462
CG16868,1,-1.12,0.37,-0.573
CG7320,1,0.302,1.16,-0.782
CG7320,2,-0.713,1.14,-0.534
JIL-1 (JIL-1 kinase),1,0.664,1.3,0.152
JIL-1 (JIL-1 kinase),2,-2.41,-0.444,-1.35
Deaf1 (Deformed epidermal autoregulatory factor-1),1,-1.03,0.0548,-2.44
Deaf1 (Deformed epidermal autoregulatory factor-1),2,-0.299,-1.06,-0.347
Deaf1 (Deformed epidermal autoregulatory factor-1),3,-0.504,-0.201,-0.489
CG11836,1,0.543,0.118,0.00284
Prx5 + CG7215,1,0.672,-0.456,0.689
Prx5 + CG7215,2,-1.58,-0.492,0.0232
Blimp-1,1,-1.55,-0.945,-0.275
Blimp-1,2,-1.58,0.00388,0.3
CG17928,1,-0.349,-0.0597,-4.09
CG4955,1,-0.479,-0.49,0.237
CG5768,1,-0.0166,-4.23,-0.486
CG10918,1,0.49,0.229,0.622
CG10918,2,-2.05,0.33,-4.35
CG14759,1,-2.81,-3.85,-0.133
btz (barentsz),1,-1.34,-0.00624,-1.54
btz (barentsz),2,1.4,0.662,0.676
CG9106,1,-4.79,-7.51,0.662
CG9106,2,1.03,3.51,1.12
CG15514,1,1.1,0.651,0.308
CG15514,2,1.04,1.03,0.736
CG8197,1,-0.543,1.06,0.691
CG14383,1,-0.344,0.435,0.728
frtz (fritz),1,1.69,-1.52,-1.18
Ccdc114 (Coiled-coil domain containing protein 114),1,-0.159,1.22,0.853
Obp57c (Odorant-binding protein 57c),1,-3.54,-4.24,-1.16
Cyt-c1 (Cytochrome c1),1,1.26,0.881,-0.384
Cyt-c1 (Cytochrome c1),2,-0.719 (active),-1.71,-1.82
Tsp42Er (Tetraspanin 42Er),1,0.0736,-2.16,-0.845
RpLP1 (Ribosomal protein LP1),1,1.87 (active),2.45,3.86
RpLP1 (Ribosomal protein LP1),2,0.524,-0.0365,0.422
RpLP1 (Ribosomal protein LP1),3,0.459 (active),3.58,2.78
CG42340,1,-0.467,0.645,0.414
CG42340,2,-0.446,-2.33,-2.71
CG42340,3,-0.35,0.292,0.339
CG42340,4,-0.0908,0.218,-1.52
CG42340,5,0.724,2.35,0.367
Pli (Pellino),1,0.863,-0.018,0.401
natalisin,1,-1.27,-1.32,0.0685
natalisin,2,-0.26,0.154,-0.574
natalisin,3,0.598,0.409,-0.564
ninaB (neither inactivation nor afterpotential B),1,-0.2,-1.81,-0.109
ninaB (neither inactivation nor afterpotential B),2,-1.8,0.203,-1.63
Dic4,1,0.866,-0.37,1.01
CG17780 + CG17781,1,-0.302,0.0295,-1.8
CG17780 + CG17781,2,1.67,0.935,0.216
CG6435,1,-0.414,-4.75,0.494
Smu1 (Smu1 spliceosomal factor),1,-6.09 (active),-0.617,-2.75
Patronin,1,-0.46,-0.479,0.842
Patronin,2,0.0408,-0.801,0.198
Patronin,3,0.803,0.939,0.675
CG42710,1,0.745,0.583,1.28
CG30187,1,-0.205,-0.775,-0.599
CG18284,1,-0.864,0.669,0.177
CG18284,2,-0.136,-7.79,-2.08
CG18284,3,-1.64,1.02,-0.868
Obp83a (Odorant-binding protein 83a),1,-0.392,-0.355,-2.15
Obp83a (Odorant-binding protein 83a),2,-1.12,0.386,-0.295
CG10527,1,-0.329,-0.355,-5.07
CG10527,2,0.479,0.944,1.52

Part of the list above, set out differently:
{"gene":"natalisin","reagent":2,"Wolbachia per cell robust z, rep 1":-0.26,"Wolbachia per cell robust z, rep 2":0.154,"Wolbachia per cell robust z, rep 3":-0.574}
{"gene":"natalisin","reagent":3,"Wolbachia per cell robust z, rep 1":0.598,"Wolbachia per cell robust z, rep 2":0.409,"Wolbachia per cell robust z, rep 3":-0.564}
{"gene":"ninaB (neither inactivation nor afterpotential B)","reagent":1,"Wolbachia per cell robust z, rep 1":-0.2,"Wolbachia per cell robust z, rep 2":-1.81,"Wolbachia per cell robust z, rep 3":-0.109}
{"gene":"ninaB (neither inactivation nor afterpotential B)","reagent":2,"Wolbachia per cell robust z, rep 1":-1.8,"Wolbachia per cell robust z, rep 2":0.203,"Wolbachia per cell robust z, rep 3":-1.63}
{"gene":"Dic4","reagent":1,"Wolbachia per cell robust z, rep 1":0.866,"Wolbachia per cell robust z, rep 2":-0.37,"Wolbachia per cell robust z, rep 3":1.01}
{"gene":"CG17780 + CG17781","reagent":1,"Wolbachia per cell robust z, rep 1":-0.302,"Wolbachia per cell robust z, rep 2":0.0295,"Wolbachia per cell robust z, rep 3":-1.8}
{"gene":"CG17780 + CG17781","reagent":2,"Wolbachia per cell robust z, rep 1":1.67,"Wolbachia per cell robust z, rep 2":0.935,"Wolbachia per cell robust z, rep 3":0.216}
{"gene":"CG6435","reagent":1,"Wolbachia per cell robust z, rep 1":-0.414,"Wolbachia per cell robust z, rep 2":-4.75,"Wolbachia per cell robust z, rep 3":0.494}
{"gene":"Smu1 (Smu1 spliceosomal factor)","reagent":1,"Wolbachia per cell robust z, rep 1":"-6.09 (active)","Wolbachia per cell robust z, rep 2":-0.617,"Wolbachia per cell robust z, rep 3":-2.75}
